Results taken from PubChem BioAssay AID1626 (SRMLSC, 2009).
The list shows a part of the results. Some structures show a salt or complex split into parts, the way the source records it. Activity calls are given as the source filed them. Rule as the data show it: inconclusive = inhibition above about 80% without an active follow-up result; inactive = below that; test concentration not stated here.

experiment: M. tuberculosis H37Rv growth inhibitors, H37Rv strain (AID 1626); conditions: hits give high values, concentration not given here;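 also: bacteria incubated seven days before Alamar blue readout; 0% = bacteria only wells and 100% = bacteria with antibiotic wells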

For CP(=O)(OC12CC3CC(CC(C3)C1)C2)OC12CC3CC(CC(C3)C1)C2, which inhibition is on record?
The inhibition was inactive: 4.41%.

With CCOC(=O)c1ccc(NP(C)(=O)Oc2ccc(Cl)cc2)cc1 (centres undefined) as the molecule, how does the inhibition read?
Its inhibition is inactive: 12.1%.

For CN(C)C(=O)c1c([N+](=O)[O-])cc([N+](=O)[O-])cc1[N+](=O)[O-], which inhibition is on record?
Its inhibition is inactive: -1.48%.

With CP(=O)(Nc1ccc(Cl)cc1)Oc1ccc(F)cc1 (centres undefined) as the molecule, how does the inhibition read?
Its inhibition is inactive: 0.2%.

For CC(C)(C)c1ccc(OP(C)(=O)O)cc1, which inhibition is on record?
The inhibition was inactive: 6.62%.

For COc1ccccc1OP(C)(=O)Nc1ccccc1Br (centres undefined), which inhibition is on record?
Its inhibition is inactive: -1.67%.

Which inhibition does the source give for CCc1ccc(OP(C)(=O)Nc2cccnc2)cc1 (centres undefined) here?
Its inhibition is inactive: 3.47%.

For CP(=O)(Oc1ccccc1)N1CCOC1=O (centres undefined), which inhibition is on record?
The inhibition was inactive: -11.7%.

For O=C(OCCCN1CCCC1)C(O)(c1ccccc1)C1CCCCC1 (centres undefined), which inhibition is on record?
Its inhibition is inactive: 0.09%.

With COc1ccccc1OP(C)(=O)Nc1c(C)n(C)n(-c2ccccc2)c1=O (centres undefined) as the molecule, how does the inhibition read?
Its inhibition is inactive: -5.32%.

Which inhibition does the source give for COc1ccc(OP(C)(=O)Nc2ccc(Br)cc2)cc1 (centres undefined) here?
Its inhibition is inactive: 16.2%.

With CCN(CC)CC(O)COC(=O)C(O)(c1ccccc1)C1CCCCC1 (centres undefined) as the molecule, how does the inhibition read?
Its inhibition is inactive: -5.37%.

With CCc1ccc(OP(C)(=O)O)cc1 as the molecule, how does the inhibition read?
Its inhibition is inactive: -6.03%.

Which inhibition does the source give for COc1ccccc1OP(C)(=O)Nc1ccc(C)cc1C (centres undefined) here?
The inhibition was inactive: 0.69%.

Which inhibition does the source give for CP(=O)(Nc1ccccn1)Oc1ccccc1 (centres undefined) here?
Its inhibition is inactive: 2.71%.

Which inhibition does the source give for Cc1c(NP(C)(=O)Oc2ccc(C(C)C)cc2)c(=O)n(-c2ccccc2)n1C (centres undefined) here?
The inhibition was inactive: 2.6%.

Which inhibition does the source give for CN(C)CCOC(=O)C(O)(c1ccccc1)C1CCCC1 (centres undefined) here?
The inhibition was inactive: -2.48%.

With COc1ccc(OP(C)(=O)Nc2ccccn2)cc1 (centres undefined) as the molecule, how does the inhibition read?
The inhibition was inactive: 2.91%.

With COc1ccccc1OP(C)(=O)Nc1ccc(Br)cc1 (centres undefined) as the molecule, how does the inhibition read?
The inhibition was inactive: 8.11%.

With CP(=O)(OCCOc1ccccc1)OCCOc1ccccc1 as the molecule, how does the inhibition read?
Its inhibition is inactive: 3.55%.

With CP(=O)(Nc1ccc(Cl)cc1Cl)Oc1ccccc1 (centres undefined) as the molecule, how does the inhibition read?
The inhibition was inactive: 10.8%.

Which inhibition does the source give for Cc1nc2ccc3ccccc3c2o1.O=[N+]([O-])c1cc([N+](=O)[O-])c(O)c([N+](=O)[O-])c1 here?
Its inhibition is inactive: -4.98%.

Which inhibition does the source give for COc1ccc(OP(C)(=O)Nc2ccccc2Br)cc1 (centres undefined) here?
The inhibition was inactive: -1.04%.

For COc1ccccc1OP(C)(=O)Nc1ccc(C)c(C)c1 (centres undefined), which inhibition is on record?
The inhibition was inactive: -6.47%.

Which inhibition does the source give for Cc1cc(C)cc(OP(C)(=O)Nc2cccc(C(F)(F)F)c2)c1 (centres undefined) here?
The inhibition was inactive: 2.62%.

For CP(=O)(Nc1ccccc1)Oc1ccc(F)cc1 (centres undefined), which inhibition is on record?
The inhibition was inactive: 18.8%.

For CCN(CC)CCCOC(=O)C(O)(c1ccccc1)C1CCCCC1 (centres undefined), which inhibition is on record?
Its inhibition is inactive: -10.5%.

Which inhibition does the source give for COc1ccc(OP(C)(=O)Nc2ccc(SC(F)(F)F)cc2)cc1 (centres undefined) here?
Its inhibition is inactive: 7.03%.

With CCOC(=O)c1ccc(NP(C)(=O)Oc2ccc(F)cc2)cc1 (centres undefined) as the molecule, how does the inhibition read?
Its inhibition is inactive: 5.95%.

With COc1ccc2c(c1O)-c1c(O)c(OC)cc3c1[C@H](C2)[N+](C)(C)CC3.O=[N+]([O-])c1cc([N+](=O)[O-])c([O-])c([N+](=O)[O-])c1[O-] as the molecule, how does the inhibition read?
Its inhibition is inactive: -2.9%.

With O=C(OCCN1CCN(CCOCc2ccccc2)CC1)C(O)(c1ccccc1)c1ccccc1 as the molecule, how does the inhibition read?
Its inhibition is inactive: -0.28%.

For O=C(OC1CN2CCC1CC2)c1ccc([N+](=O)[O-])cc1 (centres undefined), which inhibition is on record?
The inhibition was inactive: -12.2%.

Which inhibition does the source give for CC(C)c1ccc(OP(C)(=O)Nc2ccc(SC(F)(F)F)cc2)cc1 (centres undefined) here?
Its inhibition is inactive: 14.2%.

Which inhibition does the source give for CP(=O)(Nc1ccccc1F)Oc1ccccc1 (centres undefined) here?
Its inhibition is inactive: 0.78%.

With Cc1ccccc1NP(C)(=O)Nc1ccccc1C as the molecule, how does the inhibition read?
The inhibition was inactive: -1.88%.

With CP(=O)(Nc1ccc2c(c1)OCCO2)Oc1ccccc1 (centres undefined) as the molecule, how does the inhibition read?
Its inhibition is inactive: 7.44%.

With CCOP(C)(=S)SCC(=O)NC(C)(CC)C(=O)O (centres undefined) as the molecule, how does the inhibition read?
Its inhibition is inactive: 0.74%.

For CP(=O)(Nc1ccc(SC(F)(F)F)cc1)Oc1ccc(F)cc1 (centres undefined), which inhibition is on record?
Its inhibition is inactive: 12.3%.

With Cc1cc(-c2cccc3ccccc23)c(C)cn1.O=[N+]([O-])c1cc([N+](=O)[O-])c(O)c([N+](=O)[O-])c1 as the molecule, how does the inhibition read?
Its inhibition is inactive: 4.88%.

Which inhibition does the source give for O=[N+]([O-])c1cc([N+](=O)[O-])c(NCC2CCS(=O)(=O)C2)c([N+](=O)[O-])c1 (centres undefined) here?
Its inhibition is inactive: -6.16%.

For O=[N+]([O-])c1ccc(OP2(=O)COCCO2)cc1 (centres undefined), which inhibition is on record?
The inhibition was inactive: -1.56%.

With COc1ccc(NP(C)(=O)Oc2ccccc2OC)cc1 (centres undefined) as the molecule, how does the inhibition read?
Its inhibition is inactive: 7.23%.

With CN(C)CCOC(=O)C(O)(c1ccccc1)C1CCCCC1 (centres undefined) as the molecule, how does the inhibition read?
The inhibition was inactive: 9.96%.

Which inhibition does the source give for COc1ccc(OP(C)(=O)Nc2cccc(Br)c2)cc1 (centres undefined) here?
Its inhibition is inactive: 11.7%.

For CP(=O)(Nc1ccc(SC(F)(F)F)cc1)Oc1ccccc1 (centres undefined), which inhibition is on record?
Its inhibition is inactive: 12%.

For CCCOc1ccc(NP(C)(=O)Oc2ccc(Cl)cc2)cc1 (centres undefined), which inhibition is on record?
Its inhibition is inactive: 34.4%.

For COc1ccccc1OP(C)(=O)Nc1c(C)cccc1C (centres undefined), which inhibition is on record?
Its inhibition is inactive: -8.95%.

Which inhibition does the source give for CN1CCCCC1COC(=O)C1(O)c2ccccc2CCc2ccccc21 (centres undefined) here?
Its inhibition is inactive: -3.48%.

For CCOC(=O)C(CC)C1=NC(C)(C)Cc2ccccc21.O=[N+]([O-])c1cc([N+](=O)[O-])c(O)c([N+](=O)[O-])c1 (centres undefined), which inhibition is on record?
The inhibition was inactive: -5.32%.

For O=[N+]([O-])c1cc([N+](=O)[O-])c(Nc2nnnn2CCO)c([N+](=O)[O-])c1, which inhibition is on record?
Its inhibition is inactive: -0.87%.

With Cc1nc2ccc3ccccc3c2s1.O=[N+]([O-])c1cc([N+](=O)[O-])c(O)c([N+](=O)[O-])c1 as the molecule, how does the inhibition read?
Its inhibition is inactive: 3.54%.

Which inhibition does the source give for O=[N+]([O-])c1cc([N+](=O)[O-])c(-n2nnc3ccccc32)c([N+](=O)[O-])c1 here?
Its inhibition is inactive: -1.48%.

Which inhibition does the source give for CP(=O)(Nc1cccc(Br)c1)Oc1ccccc1 (centres undefined) here?
The inhibition was inactive: 8.93%.

For Cc1cc(C)cc(OP(C)(=O)Nc2ccccn2)c1 (centres undefined), which inhibition is on record?
Its inhibition is inactive: -6.1%.

Which inhibition does the source give for Cc1ccc(C)c(NP(C)(=O)Oc2ccccc2)c1 (centres undefined) here?
Its inhibition is inactive: 0.55%.

With Cc1cc(C)cc(OP(C)(=O)Nc2ccc(C)cc2C)c1 (centres undefined) as the molecule, how does the inhibition read?
Its inhibition is inactive: 0.76%.

With CCOC(=O)c1ccc(NP(C)(=O)Oc2cc(C)cc(C)c2)cc1 (centres undefined) as the molecule, how does the inhibition read?
Its inhibition is inactive: 5.03%.

Which inhibition does the source give for COc1ccccc1OP(C)(=O)Nc1cccc(Br)c1 (centres undefined) here?
The inhibition was inactive: 7%.

For CC1=NCCc2c1[nH]c1ccccc21.O=[N+]([O-])c1cc([N+](=O)[O-])c(O)c([N+](=O)[O-])c1, which inhibition is on record?
Its inhibition is inactive: 1.71%.

For COc1ccccc1OP(C)(=O)Nc1cc(Cl)ccc1C (centres undefined), which inhibition is on record?
Its inhibition is inactive: 3.82%.

Which inhibition does the source give for Cc1cc(C)cc(OP(C)(N)=O)c1 (centres undefined) here?
Its inhibition is inactive: 0.88%.

With CCOC(=O)c1ccc(NP(C)(=O)Oc2ccccc2)cc1 (centres undefined) as the molecule, how does the inhibition read?
The inhibition was inactive: 0.85%.

Which inhibition does the source give for COc1ccccc1OP(C)(=O)Nc1ccc(C)cc1 (centres undefined) here?
Its inhibition is inactive: 8.29%.

With Cc1cccc(C)c1OP(C)(N)=O (centres undefined) as the molecule, how does the inhibition read?
Its inhibition is inactive: -0.35%.

For CC(C)(C)c1ccc(OP(C)(=O)Nc2ccc(SC(F)(F)F)cc2)cc1 (centres undefined), which inhibition is on record?
Its inhibition is inactive: 13.5%.

For O=[N+]([O-])c1ccc2c(c1)C=Nc1ccccc1O2, which inhibition is on record?
The inhibition was inactive: 5.23%.

For CCN(CC)CCCOC(=O)C(O)(c1ccccc1)c1ccccc1, which inhibition is on record?
The inhibition was inactive: -4.75%.

For CP(=O)(Nc1ccccn1)Oc1ccc(Cl)cc1 (centres undefined), which inhibition is on record?
The inhibition was inactive: 4.9%.

For CCOP(C)(=S)SCC(=O)NC(C)C(=O)O (centres undefined), which inhibition is on record?
The inhibition was inactive: -3.41%.

Which inhibition does the source give for CCOC(=O)c1ccc(NP(C)(=O)Oc2ccc(OC)cc2)cc1 (centres undefined) here?
The inhibition was inactive: 16.1%.

Which inhibition does the source give for Cc1cc(C)cc(OP(C)(=O)Nc2ccc(SC(F)(F)F)cc2)c1 (centres undefined) here?
The inhibition was inactive: 6.75%.

With CCc1ccc(OP(C)(=O)N2CCN(c3ccc([N+](=O)[O-])cc3)CC2)cc1 (centres undefined) as the molecule, how does the inhibition read?
Its inhibition is inactive: 14.9%.

Which inhibition does the source give for CP(=O)(NC(=O)Nc1ccccc1)Oc1ccccc1 (centres undefined) here?
Its inhibition is inactive: 2.49%.

For CP(=O)(Oc1ccccc1)OC(c1ccccc1)C(F)(F)F (centres undefined), which inhibition is on record?
Its inhibition is inactive: 0.01%.

Which inhibition does the source give for Cc1cccc(C)c1OP(C)(=O)Nc1ccc(SC(F)(F)F)cc1 (centres undefined) here?
Its inhibition is inactive: 6.12%.

For CP(=O)(Nc1ccc(SC(F)(F)F)cc1)Oc1ccc(Cl)cc1 (centres undefined), which inhibition is on record?
The inhibition was inactive: 11.5%.

With COc1ccccc1OP(C)(=O)Nc1ccccc1 (centres undefined) as the molecule, how does the inhibition read?
Its inhibition is inactive: 9.46%.

For CP(=O)(Nc1ccccc1Br)Oc1ccccc1 (centres undefined), which inhibition is on record?
Its inhibition is inactive: 10.9%.

For CP(=S)(Nn1cnnc1)Oc1ccccc1 (centres undefined), which inhibition is on record?
Its inhibition is inactive: 7.07%.
